{"source": "PubChem BioAssay AID1259414 (Drosophila RNAi Screening Center, 2018)", "assay": "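Fly genes that alter Wolbachia amount inside host cells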 (primary screen)", "cell system": "Drosophila JW18 cells infected with Wolbachia", "knock-down reagent": "long dsRNA against Drosophila genes, 0.25 µg dsRNA per well of a 384-well plate", "duration": "5 days", "conditions": "cells persistently infected with Wolbachia before knock-down; no added drug", "measurement": "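Automated imaging of bacterial rRNA staining divided by host cell count, reported as plate-normalised robust z-score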", "direction": "Wolbachia per cell robust z: higher = more Wolbachia per host cell than the plate typical", "hit rule": "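Active if absolute robust z reaches 1.5 in two or more of three replicates, leaving out multi- or no-target dsRNAs, genes unexpressed in JW18 and A1 wells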", "note": "The screen tested about 24,000 reagents; below is a random part of those that have a named target and a result. Of all reagents, about 1,210 (5%) got an active call. 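Inactive calls also include excluded dsRNAs with several or no targets, genes unexpressed in JW18, and well A1, regardless of score.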 Reagents against one gene are numbered here. Names joined by + are all predicted targets of the reagent. No sequences are given here."}
The first 3 records, to show the layout:
{"Gene":"MED30","reagent no.":1,"Wolbachia per cell robust z, rep 1":-0.694,"Wolbachia per cell robust z, rep 2":-0.516,"Wolbachia per cell robust z, rep 3":-0.666,"Call":"inactive"}
{"Gene":"MED30","reagent no.":2,"Wolbachia per cell robust z, rep 1":-0.0975,"Wolbachia per cell robust z, rep 2":-4.26,"Wolbachia per cell robust z, rep 3":0.295,"Call":"inactive"}
{"Gene":"CG4577","reagent no.":1,"Wolbachia per cell robust z, rep 1":-8.58,"Wolbachia per cell robust z, rep 2":0.15,"Wolbachia per cell robust z, rep 3":0.136,"Call":"inactive"}

Main list, from the first entry:
{"Gene":"MED30","reagent no.":1,"Wolbachia per cell robust z, rep 1":-0.694,"Wolbachia per cell robust z, rep 2":-0.516,"Wolbachia per cell robust z, rep 3":-0.666,"Call":"inactive"}
{"Gene":"MED30","reagent no.":2,"Wolbachia per cell robust z, rep 1":-0.0975,"Wolbachia per cell robust z, rep 2":-4.26,"Wolbachia per cell robust z, rep 3":0.295,"Call":"inactive"}
{"Gene":"CG4577","reagent no.":1,"Wolbachia per cell robust z, rep 1":-8.58,"Wolbachia per cell robust z, rep 2":0.15,"Wolbachia per cell robust z, rep 3":0.136,"Call":"inactive"}
{"Gene":"CG13022","reagent no.":1,"Wolbachia per cell robust z, rep 1":-2.89,"Wolbachia per cell robust z, rep 2":0.0279,"Wolbachia per cell robust z, rep 3":-2.5,"Call":"inactive"}
{"Gene":"CG11200","reagent no.":1,"Wolbachia per cell robust z, rep 1":-0.257,"Wolbachia per cell robust z, rep 2":0.435,"Wolbachia per cell robust z, rep 3":0.0953,"Call":"inactive"}
{"Gene":"CG11200","reagent no.":2,"Wolbachia per cell robust z, rep 1":0.85,"Wolbachia per cell robust z, rep 2":0.738,"Wolbachia per cell robust z, rep 3":0.196,"Call":"inactive"}
{"Gene":"sw","reagent no.":1,"Wolbachia per cell robust z, rep 1":-3.91,"Wolbachia per cell robust z, rep 2":-0.321,"Wolbachia per cell robust z, rep 3":0.508,"Call":"inactive"}
{"Gene":"arg","reagent no.":1,"Wolbachia per cell robust z, rep 1":-0.927,"Wolbachia per cell robust z, rep 2":-0.682,"Wolbachia per cell robust z, rep 3":0.184,"Call":"inactive"}
{"Gene":"arg","reagent no.":2,"Wolbachia per cell robust z, rep 1":-0.654,"Wolbachia per cell robust z, rep 2":-1.4,"Wolbachia per cell robust z, rep 3":-0.713,"Call":"inactive"}
{"Gene":"NdufV3","reagent no.":1,"Wolbachia per cell robust z, rep 1":0.834,"Wolbachia per cell robust z, rep 2":-0.212,"Wolbachia per cell robust z, rep 3":0.502,"Call":"inactive"}
{"Gene":"NdufV3","reagent no.":2,"Wolbachia per cell robust z, rep 1":-1.31,"Wolbachia per cell robust z, rep 2":-1.41,"Wolbachia per cell robust z, rep 3":-0.0938,"Call":"inactive"}
{"Gene":"Gcn2","reagent no.":1,"Wolbachia per cell robust z, rep 1":0.358,"Wolbachia per cell robust z, rep 2":-0.748,"Wolbachia per cell robust z, rep 3":-3.11,"Call":"inactive"}
{"Gene":"CG14740","reagent no.":1,"Wolbachia per cell robust z, rep 1":-0.36,"Wolbachia per cell robust z, rep 2":0.0409,"Wolbachia per cell robust z, rep 3":-2.12,"Call":"inactive"}
{"Gene":"KP78b + KP78a","reagent no.":1,"Wolbachia per cell robust z, rep 1":0.419,"Wolbachia per cell robust z, rep 2":0.21,"Wolbachia per cell robust z, rep 3":-0.175,"Call":"inactive"}
{"Gene":"KP78b + KP78a","reagent no.":2,"Wolbachia per cell robust z, rep 1":-0.116,"Wolbachia per cell robust z, rep 2":-0.619,"Wolbachia per cell robust z, rep 3":-1.07,"Call":"inactive"}
{"Gene":"KP78b + KP78a","reagent no.":3,"Wolbachia per cell robust z, rep 1":-0.508,"Wolbachia per cell robust z, rep 2":-0.103,"Wolbachia per cell robust z, rep 3":0.115,"Call":"inactive"}
{"Gene":"CG11714","reagent no.":1,"Wolbachia per cell robust z, rep 1":0.615,"Wolbachia per cell robust z, rep 2":-1.16,"Wolbachia per cell robust z, rep 3":-0.682,"Call":"inactive"}
{"Gene":"CG30270","reagent no.":1,"Wolbachia per cell robust z, rep 1":-0.325,"Wolbachia per cell robust z, rep 2":-0.963,"Wolbachia per cell robust z, rep 3":-1.18,"Call":"inactive"}
{"Gene":"CG12498","reagent no.":1,"Wolbachia per cell robust z, rep 1":0.433,"Wolbachia per cell robust z, rep 2":-0.267,"Wolbachia per cell robust z, rep 3":0.608,"Call":"inactive"}
{"Gene":"CG15046","reagent no.":1,"Wolbachia per cell robust z, rep 1":1.12,"Wolbachia per cell robust z, rep 2":-0.417,"Wolbachia per cell robust z, rep 3":-0.319,"Call":"inactive"}
{"Gene":"Oamb","reagent no.":1,"Wolbachia per cell robust z, rep 1":0.2,"Wolbachia per cell robust z, rep 2":1.36,"Wolbachia per cell robust z, rep 3":-1.08,"Call":"inactive"}
{"Gene":"Oamb","reagent no.":2,"Wolbachia per cell robust z, rep 1":0.423,"Wolbachia per cell robust z, rep 2":-2.05,"Wolbachia per cell robust z, rep 3":-0.252,"Call":"inactive"}
{"Gene":"Oamb","reagent no.":3,"Wolbachia per cell robust z, rep 1":-5.7,"Wolbachia per cell robust z, rep 2":0.087,"Wolbachia per cell robust z, rep 3":-0.0728,"Call":"inactive"}
{"Gene":"CG8135 + BBIP1","reagent no.":1,"Wolbachia per cell robust z, rep 1":1.57,"Wolbachia per cell robust z, rep 2":0.886,"Wolbachia per cell robust z, rep 3":0.0178,"Call":"inactive"}
{"Gene":"CG8135 + BBIP1","reagent no.":2,"Wolbachia per cell robust z, rep 1":1.65,"Wolbachia per cell robust z, rep 2":1.65,"Wolbachia per cell robust z, rep 3":-1.08,"Call":"inactive"}
